Results reported in patent publication US20090221500.

Tested on: elongation factor-2 (EF-2)

Substance: DT382 (G53E): Null construct (sequence left out)
- Relative Activity (IVTT): 0.43
- Relative IVTT score: 0.43
